{"source": "PubChem BioAssay AID504761 (Drosophila RNAi Screening Center, 2011)", "screen": "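Insect host genes that dengue virus relies on to spread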 (primary screen)", "cells": "D.Mel-2 cells from Drosophila", "reagents": "long dsRNA against Drosophila genes", "challenge": "infection with dengue virus type 2; dose and infection time not stated", "detection": "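Per well on two replicate plates, imaging gave the percent of cells positive for viral envelope protein, ranked by infection, and a nuclear count of cells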", "reading the numbers": "infection score: higher = more virus-infected cells", "active means": "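Low infection ranks in the two replicates (chance level up to 0.065) followed by a retest with a 1.5-fold or larger significant decrease, p below 0.05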", "meaning of the calls": "active = confirmed: knock-down lowers infection; inactive = not picked or not confirmed", "note": "The deposit covers about 22,000 reagents; shown is an unselected part of those that have a named target and a result. Of all reagents, 116 (0.52%) were called active. 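Calls depend on retest data that are not deposited; infection was ranked per plate without normalising between plates; the unit of the infection score is not given.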 Names joined by + are all predicted targets of the reagent. Not all columns of the deposit are shown. Reagent sequences are not shown. Not stated in the record: the amount of reagent, the time to read-out."}
{"target": "Cont (GeneID 40553)", "dsRNA": "DRSC12149", "infection score, replicate 1": 10.1, "outcome": "inactive"}
{"target": "CG14417 (GeneID 31274)", "dsRNA": "DRSC18638", "infection score, replicate 1": 1.06, "outcome": "inactive"}
{"target": "CG31999 (GeneID 43777)", "dsRNA": "DRSC17131", "infection score, replicate 1": 3.89, "outcome": "inactive"}
{"target": "CG31999 (GeneID 43777)", "dsRNA": "DRSC17133", "infection score, replicate 1": 0.73, "outcome": "inactive"}
{"target": "CG14191 (GeneID 32893)", "dsRNA": "DRSC19546", "infection score, replicate 1": 6.12, "outcome": "inactive"}
{"target": "CG14191 (GeneID 32893)", "dsRNA": "DRSC25317", "infection score, replicate 1": 5.72, "outcome": "inactive"}
{"target": "deltaTry + CG30031 + CG30025 + 1 more", "dsRNA": "DRSC27531", "infection score, replicate 1": 4.93, "outcome": "inactive"}
{"target": "CG31464 (GeneID 318749)", "dsRNA": "DRSC14345", "infection score, replicate 1": 5.3, "outcome": "inactive"}
{"target": "Adsl (GeneID 42051)", "dsRNA": "DRSC15500", "infection score, replicate 1": 8.14, "outcome": "inactive"}
{"target": "l(1)G0004 (GeneID 33033)", "dsRNA": "DRSC20486", "infection score, replicate 1": 3.27, "outcome": "inactive"}
{"target": "Pura (GeneID 2768948)", "dsRNA": "DRSC08891", "infection score, replicate 1": 1.4, "outcome": "inactive"}
{"target": "Pura (GeneID 2768948)", "dsRNA": "DRSC10862", "infection score, replicate 1": 2.03, "outcome": "inactive"}
{"target": "Pura (GeneID 2768948)", "dsRNA": "DRSC10864", "infection score, replicate 1": 1.7, "outcome": "inactive"}
{"target": "Pura (GeneID 2768948)", "dsRNA": "DRSC10865", "infection score, replicate 1": 2.55, "outcome": "inactive"}
{"target": "Pura (GeneID 2768948)", "dsRNA": "DRSC10866", "infection score, replicate 1": 3.11, "outcome": "inactive"}
{"target": "Pura (GeneID 2768948)", "dsRNA": "DRSC26606", "infection score, replicate 1": 6.69, "outcome": "inactive"}
